Share of PSTVd loop 6 variants by leaf site

The pool varies loop 6 of the PSTVd intermediate strain in the pattern UNNNCGNNNG; wild type is UGACCGCGAG (upper and lower strand joined, each 5' to 3', the first 5 letters being the upper strand, closing pairs included).

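A pool of all variants was put on leaves of three Nicotiana benthamiana plants. Progeny were sequenced from the inoculated region (day 5), the margin of the inoculated leaf (day 10) and systemic leaves (day 12).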

Numbers give reads per thousand; 0 = not seen among the reads, higher = more abundant.
Each value is the mean of three plants.
"Pool" is the share in the plasmid pool used as inoculum, on the same scale.
The inoculated region was read from the minus strand, the other sites from the plus strand.
IR is the inoculated region, LM the leaf margin, Sys the systemic leaves.
For reference, wild type rose from 20.7 per thousand in the pool to 195, 198, 203 (inoculated region), 629, 591, 734 (leaf margin) and 942, 870, 868 (systemic leaves).

* UUUACGACUG (pool 0.327) = IR 0.0654; LM 0; Sys 0
* UGGCCGUGGG (pool 0.131) = IR 0.120; LM 0.0261; Sys 0.0544
* UCGACGGAGU (pool 0.0131) = IR 0; LM 0; Sys 0
* UUUGCGACGG (pool 0.340) = IR 0.0654; LM 0.00773; Sys 0
* UGACAGGUGG (pool 0.0131) = IR 0; LM 0.0260; Sys 0
* UUCGCGGCGG (pool 0.222) = IR 0.0592; LM 0.00920; Sys 0.00673
* UGUUCGUAUG (pool 0.392) = IR 0.0652; LM 0.118; Sys 0
* UCGACGGGAG (pool 0.209) = IR 0.594; LM 0.0739; Sys 0
* UGCGCGUAGG (pool 0.183) = IR 0.0908; LM 0; Sys 0
* UCGCCGCGAG (pool 0.209) = IR 0.119; LM 0.0966; Sys 0.0443
* UAGACGGCGG (pool 0.261) = IR 0.108; LM 0.0169; Sys 0
* UAAUCGCCCG (pool 0.261) = IR 0.0531; LM 0.00773; Sys 0
* UUGACGCACG (pool 0.235) = IR 0.0719; LM 0; Sys 0
* UGUCCGGUGG (pool 0.209) = IR 0.124; LM 0.00841; Sys 0
* UCACCGGAGG (pool 0.183) = IR 0.102; LM 0.0464; Sys 0
* UUUACGAGCG (pool 0.222) = IR 0.0831; LM 0; Sys 0
* UUCGCGUCUG (pool 0.248) = IR 0.0953; LM 0.00773; Sys 0
* UUAACGAUUG (pool 0.497) = IR 0.120; LM 0.0247; Sys 0
* UUACCGUGAG (pool 0.248) = IR 0.617; LM 0.0662; Sys 0
* UUGACGGCGG (pool 0.196) = IR 0.0905; LM 0; Sys 0
* UUACCGGAUA (pool 0.0131) = IR 0; LM 0; Sys 0
* UUGCCGGUUG (pool 0.209) = IR 0.118; LM 0.00773; Sys 0
* UAUUCGUUGG (pool 0.353) = IR 0.0362; LM 0; Sys 0
* UAAGCGCGGG (pool 0.209) = IR 0.136; LM 0; Sys 0

The opening 2 entries, copied out:

| sequence | pool | IR | LM | Sys |
|---|---|---|---|---|
| UUUACGACUG | 0.327 | 0.0654 | 0 | 0 |
| UGGCCGUGGG | 0.131 | 0.120 | 0.0261 | 0.0544 |

The authors trace changes outside the varied positions to PCR and sequencing errors or to mutation in the plant; presence does not show that a variant is infectious alone.
Samples held 36,220 to 57,551 reads, so the smallest values rest on one or two reads.

The measurements come from Wu et al. 2024 (doi:10.1371/journal.ppat.1012142).